Among the data in publication PMC11617668, “Developing Allosteric Inhibitors of SARS‐CoV‐2 RNA‐Dependent RNA Polymerase” (Chemmedchem, 2024) are EC50 values, retold here.

This assay deals with SARS‐CoV‐2. To be noted: […].

Turning to `FC(F)(F)c1cccc(Nc2nc3cc(Cl)c(Cl)cc3[nH]2)c1` [Compound 56, 5,6‐Dichloro‐N‐(3‐(Trifluoromethyl)phenyl)‐1H‐Benzo[d]imidazol‐2‐Amine], the EC50 entry is “lost the antiviral activity almost completely”.
As for `O=C(Nc1cccc(C(F)(F)F)c1)Nc1nc2cc(Cl)c(Cl)cc2[nH]1` [Compound 59, 1‐(5,6‐Dichloro‐1H‐Benzo[d]imidazol‐2‐yl)‐3‐(3‐(Trifluoromethyl)phenyl)urea], the entry is “lost the antiviral activity almost completely”.
